According to patent US10584361B2, “Algae having intracellular lipid particles and high lipid content” (THE UNIVERSITY OF AKRON, priority 2012, dated 2020):

Legend:
[1] = tested on: algae; assay: Lipid enhancement with glycerol (algae re-suspended in salts solution); format: cell-based
Method: The specific procedure was: • i. […] Rotate 20 min at 40% output (Glas-Col) • vi. Centrifuge at 3620 g for 5 min • vii.
Algae were first cultured and then collected by centrifuge.
The thin layer chromatography analysis was performed the same as in Experiment 2.

[2] = tested on: algae; assay: Lipid enhancement with acetic acid/acetate salts and glycerol (algae re-suspended in salts solution); format: cell-based; details: 15 hrs after adding; substance as the carbon source

## OCC(O)CO [glycerol]
[1]; 0.5, 1, 5 g/L glycerol
  effect of glycerol concentration on the lipid content: no obvious effect
[1]; compared to the initial algae culture
  lipid profile by TLC: the free fatty acid part reduced and the triglyceride part became larger
[2]
  particles inside alga cells (microscopic images): no particles inside alga cells were observed
